Results of unrelated studies side by side (data: NIAID ChemDB).

Common to all: growth or infection tests; agent: HIV-1; method: RT activity; read-out: inhibition

Percent inhibition refers to the dose given; in toxicity tests it is the harm to the cells.

{"SMILES": "C=C(C)[C@@H]1CC[C@]2(C(=O)NCCCCCCCC(=O)N[C@@H](CC(C)C)[C@H](O)CC(=O)O)CC[C@]3(C)[C@H](CC[C@@H]4[C@@]5(C)CC[C@H](O)C(C)(C)[C@@H]5CC[C@]43C)[C@@H]12", "cells": "MT-4", "strain": "DH012", "tested at": "53 µM", "result": "~90%"}
{"SMILES": "Cc1cn([C@H]2C[C@H](N=[N+]=[N-])[C@@H](CO)O2)c(=O)[nH]c1=O", "cells": "CEM", "conditions": "7 d", "strain": "LAV-Bru", "tested at": "5 µM", "result": "96%"}
{"SMILES": "Nc1nc(=O)n([C@@H]2C[C@H](O)[C@@H](CO)O2)cc1-c1ccsc1", "cells": "H9", "strain": "IIIB", "tested at": "10 µg/mL", "result": "10%"}
{"SMILES": "O=C(O)P(=O)(O)O", "cells": "PBL", "conditions": "28 d", "strain": "IIIB", "tested at": "32 µM", "result": "68%"}
{"SMILES": "Nc1nc(=O)n([C@H]2C[C@H](O)[C@@H](CO)O2)cc1C1CC1", "cells": "H9", "strain": "IIIB", "tested at": "10 µg/mL", "result": "1%"}
{"SMILES": "CC(C)(C)NC(=O)[C@@H]1C[C@@H]2CCCC[C@@H]2CN1C[C@@H](O)[C@H](Cc1ccccc1)NC(=O)[C@H](CC(N)=O)NC(=O)c1ccc2ccccc2n1", "cells": "CEM + CEM-SS", "conditions": "10 d", "mutations": "PR-G48V L90M", "strain": "Saquinavir-resistant (PR G48V L90M)", "tested at": "0.1 µM", "result": "100%"}
{"SMILES": "COc1ccccc1CN[C@H]1C2CCN(CC2)[C@H]1C(c1ccccc1)c1ccccc1", "cells": "Macrophage + Monocytes/macrophages", "strain": "89.6 R5X4 isolate", "tested at": "0.1 µM", "result": "24%"}
{"SMILES": "Cc1ccc(C(=O)OC[C@H]2O[C@H](n3cc(-c4ccc(-c5ccccc5)s4)c(N)nc3=O)C[C@@H]2OC(=O)c2ccc(C)cc2)cc1", "cells": "H9", "strain": "IIIB", "tested at": "1 µg/mL", "result": "35%"}
{"SMILES": "Nc1ccn([C@H]2CC[C@@H](CO)O2)c(=O)n1", "cells": "PBMC", "strain": "LAV", "tested at": "0.1 µM", "result": "91.6%"}
{"SMILES": "Cc1cn([C@H]2C[C@H](N=[N+]=[N-])[C@@H](COP(=O)(O)OC[C@H]3OC(O)[C@@H](O)[C@@H](O)[C@@H]3O)O2)c(=O)[nH]c1=O", "cells": "CEM", "conditions": "15 d", "strain": "LAV-Bru", "tested at": "0.2 µM", "result": "91%"}
{"SMILES": "Cc1cn([C@H]2C[C@H](N=[N+]=[N-])[C@@H](CO)O2)c(=O)[nH]c1=O", "cells": "PBL (activated) + PBL", "strain": "BZ X4", "tested at": "4 µM", "result": "99%"}
{"SMILES": "Cc1cn([C@H]2C=C[C@@H](CO)O2)c(=O)[nH]c1=O", "cells": "PBMC", "strain": "LAV", "tested at": "0.1 µM", "result": "71.8%"}
{"SMILES": "CC[C@@]1(O)C(=O)OCc2c1cc1n(c2=O)Cc2cc3ccccc3nc2-1", "cells": "H9", "strain": "IIIB", "tested at": "0.2 µM", "result": "98%"}
{"SMILES": "Nc1nc(=O)n([C@@H]2C[C@H](O)[C@@H](CO)O2)cc1-c1cccs1", "cells": "H9", "strain": "IIIB", "tested at": "10 µg/mL", "result": "<1%"}
{"SMILES": "Nc1nc(NC2CC2)c2ncn([C@H]3C=C[C@@H](CO)C3)c2n1", "cells": "PBL (activated) + PBL", "strain": "SF162 R5", "tested at": "4 µM", "result": "94%"}
{"SMILES": "Nc1nc(=O)n([C@H]2C[C@H](O)[C@@H](CO)O2)cc1-c1cccs1", "cells": "H9", "strain": "IIIB", "tested at": "10 µg/mL", "result": "<10%"}
{"SMILES": "Cc1cn([C@H]2C[C@H](N=[N+]=[N-])[C@@H](COP(=O)(O)OC[C@H]3OC(O)[C@H](O)[C@@H](O)[C@@H]3O)O2)c(=O)[nH]c1=O", "cells": "CEM", "conditions": "26 d", "strain": "LAV-Bru", "tested at": "0.2 µM", "result": "0%"}
{"SMILES": "Cc1ccc(C(=O)OC[C@H]2O[C@@H](n3cc(-c4sccc4C)c(=O)[nH]c3=O)C[C@@H]2OC(=O)c2ccc(C)cc2)cc1", "cells": "H9", "strain": "IIIB", "tested at": "10 µg/mL", "result": "≥60%"}
{"SMILES": "[Se]", "cells": "U1", "strain": "LAV", "tested at": "0.05 µg/mL", "result": "24%"}
{"SMILES": "CCCCCCCCCCCCCCCCOC[C@H](CCl)OP(=O)(O)OCC[N+](C)(C)C", "cells": "H9", "strain": "IIIB", "tested at": "3 µM", "result": "83%"}
{"SMILES": "Cn1cccc1-c1cn([C@@H]2C[C@H](O)[C@@H](CO)O2)c(=O)nc1N", "cells": "H9", "strain": "IIIB", "tested at": "10 µg/mL", "result": "3%"}
{"SMILES": "O=c1[nH]cnc2c1ncn2[C@H]1CC[C@@H](CO)O1", "cells": "PBL (resting) + PBL", "strain": "BZ X4", "tested at": "9 µM", "result": "98%"}

2 of the rows above, restated:

SMILES	cells	conditions	mutations	strain	tested at	result
Cc1cn([C@H]2C=C[C@@H](CO)O2)c(=O)[nH]c1=O	PBMC	-	-	LAV	0.1 µM	71.8%
Nc1nc(=O)n([C@@H]2C[C@H](O)[C@@H](CO)O2)cc1-c1ccsc1	H9	-	-	IIIB	10 µg/mL	10%

Rows are shuffled and stem from different studies. Blank or dashed fields: not listed here.